This passage reports Conc. of enzyme for 1st IgG2 (XGEVA) heavy chain cleavage (IgG to scIgG), SDS-PAGE results from US20230302100A1.

The target in the test is denosumab (XGEVA). Nature of the test: cell-based or functional assay.

Take IdeS BX1001865 (enzyme): the Conc. of enzyme for 1st IgG2 (XGEVA) heavy chain cleavage (IgG to scIgG), SDS-PAGE amounted to 14 ng/mL.
